Anti-infective test results gathered from many reports (values: NIAID ChemDB through PubChem).

Common to all: tests in culture; organism: Staphylococcus aureus; endpoint: MIC

Conditions beyond the fields shown may differ between rows.

compound	strain	value
CCNc1c(F)cc2c(=O)c(C(=O)O)cn(-c3cc(N)c(F)cc3F)c2c1C	W806 (methicillin-resistant)	0.25 µg/mL
CC(=O)NC[C@H]1CN(c2ccc3c(c2)-n2cccc2COC3)C(=O)O1	ATCC 49951 (SMITH)	2 µg/mL
N#Cc1ccc(N2CCN(c3ccc(N4C[C@H](COc5ccccn5)OC4=O)cc3F)CC2)nc1	122 (novobiocin-resistant)	2 µg/mL
CC(O)CNc1cc2c(cc1F)c(=O)c(C(=O)O)cn2C1CC1	ATCC 6538P	>100 µg/mL
CC[C@H]1OC(=O)[C@@](C)(F)C(=O)[C@H](C)[C@@H](O[C@@H]2O[C@H](C)C[C@H](N(C)C)[C@H]2O)[C@@]2(C)C[C@@H](C)C(=NC(C)=O)[C@H](C)[C@@H](OC/C(=N\OCc3ccc(-c4ncccn4)s3)CO2)[C@]1(C)O	27660 (erythromycin A -resistant)	0.13 µg/mL
COC(=S)NC[C@H]1CN(c2ccc3c(c2)-n2cccc2COC3)C(=O)O1	ATCC 33591 (MRSA)	0.5 µg/mL
NCCCCCNc1cc2c(cc1F)c(=O)c(C(=O)O)cn2C1CC1	ATCC 6538P	>100 µg/mL
N#Cc1ccc(N2CCN(c3ccc(N4C[C@H](CNc5ccon5)OC4=O)cc3F)CC2)nn1	122 (novobiocin-resistant)	2 µg/mL
CC[C@H]1OC(=O)[C@H](C)C(=O)[C@H](C)[C@@H](O[C@@H]2O[C@H](C)C[C@H](N(C)C)[C@H]2O)[C@@]2(C)C[C@@H](C)C(=NC(C)=O)[C@H](C)C(OC/C(=C\C=C\c3ccc(OC)cc3)CO2)[C@]1(C)O	27660 (erythromycin-resistant)	0.5 µg/mL
O=C(O)c1cn(C2CC2)c2cc(NCCCCCO)c(F)cc2c1=O	ATCC 5278 (methicillin-resistant)	25 µg/mL
CCOC(=S)NC[C@H]1CN(c2ccc3c(c2)-n2cccc2COC3)C(=O)O1	ATCC 49951 (SMITH)	4 µg/mL
NCCOc1cc2c(cc1F)c(=O)c(C(=O)O)cn2-c1ccc(F)cc1F	ATCC 6538P	0.78 µg/mL
CC[C@H]1OC(=O)[C@H](C)C(=O)[C@H](C)[C@@H](O[C@@H]2O[C@H](C)C[C@H](N(C)C)[C@H]2O)[C@@]2(C)C[C@@H](C)C(=NC(C)=O)[C@H](C)C(OC/C(=C\C=C\c3ccc(F)cc3)CO2)[C@]1(C)O	33591 (erythromycin methicillin-resistant)	16 µg/mL
CC[C@H]1OC(=O)[C@H](C)C(=O)[C@H](C)[C@@H](O[C@@H]2O[C@H](C)C[C@H](N(C)C)[C@H]2O)[C@@]2(C)C[C@@H](C)C(=NC(C)=O)[C@H](C)[C@@H](OC/C(=N/OCc3ccc(-c4cccc(N)n4)s3)CO2)[C@]1(C)O	29213 (erythromycin A-susceptible)	0.5 µg/mL
CC(=O)NC[C@H]1CN(c2ccc(-c3cc(C#N)cs3)c(F)c2)C(=O)O1	UC6685 (methicillin-resistant)	≤0.5 µg/mL
O=C(O)c1cn(C2CC2)c2cc(N3CCN(CCO)CC3)c(F)cc2c1=O	ATCC 6538P	3.12 µg/mL
CNC(=O)N[C@@H]1CCN(c2ccc(N3C[C@H](CNc4ccon4)OC3=O)cc2F)C1	078 (oxford)	0.5 µg/mL
CC[C@H]1OC(=O)[C@@](C)(F)C(=O)[C@H](C)[C@@H](O[C@@H]2O[C@H](C)C[C@H](N(C)C)[C@H]2O)[C@@]2(C)C[C@@H](C)C(=NC(C)=O)[C@H](C)[C@@H](OC/C(=N\OCc3ccc(-c4csnn4)nc3)CO2)[C@]1(C)O	29213 (erythromycin A-susceptible)	0.25 µg/mL
CC[C@H]1OC(=O)[C@H](C)C(=O)[C@H](C)[C@@H](O[C@@H]2O[C@H](C)C[C@H](N(C)C)[C@H]2O)[C@@]2(C)C[C@@H](C)C(=NC(C)=O)[C@H](C)C(OC/C(=C\C#Cc3ccc(N)nc3)CO2)[C@]1(C)O	27660 (erythromycin-resistant)	0.13 µg/mL
Cc1c(NCCCO)c(F)cc2c(=O)c(C(=O)O)cn(-c3cc(N)c(F)cc3F)c12	W806 (methicillin-resistant)	2 µg/mL
O=C(NC[C@H]1CN(c2ccc3c(c2)-n2cccc2COC3)C(=O)O1)C1CC1	ATCC 49951 (SMITH)	8 µg/mL
CC(=O)NC[C@H]1CN(c2ccc(-c3cnn(Cc4ccccc4)c3)c(F)c2)C(=O)O1	UC6685 (methicillin-resistant)	8 µg/mL
CC[C@H]1OC(=O)[C@@](C)(F)C(=O)[C@H](C)[C@@H](O[C@@H]2O[C@H](C)C[C@H](N(C)C)[C@H]2O)[C@@]2(C)C[C@@H](C)C(=NC(C)=O)[C@H](C)[C@@H](OC/C(=N\OCc3ccc(-c4cccc(N)n4)s3)CO2)[C@]1(C)O	33591 (erythromycin methicillin-resistant)	4 µg/mL
CCC(=O)N=C1[C@H](C)C[C@@]2(C)OC/C(=C/C=C/c3ccccc3)COC([C@H]1C)[C@](C)(O)[C@@H](CC)OC(=O)[C@H](C)C(=O)[C@H](C)[C@H]2O[C@@H]1O[C@H](C)C[C@H](N(C)C)[C@H]1O	27660 (erythromycin-resistant)	0.5 µg/mL
CC(=O)NC[C@H]1CN(c2ccc(-c3noc(C(F)(F)F)n3)c(F)c2)C(=O)O1	UC6685 (methicillin-resistant)	16 µg/mL
CCN(CC)CCNc1cc2c(cc1F)c(=O)c(C(=O)O)cn2C1CC1	ATCC 5278 (methicillin-resistant)	>100 µg/mL
O=C1O[C@@H](CNc2ccon2)CN1c1ccc(-n2ccnc2)c(F)c1	122 (novobiocin-resistant)	0.25 µg/mL
CC(=O)NC[C@H]1CN(c2ccc(-c3ccn(CC#N)n3)c(F)c2)C(=O)O1	UC9213 (methicillin-susceptible)	2 µg/mL
CNc1c(F)cc2c(=O)c(C(=O)O)cn(-c3cc(N)c(F)cc3F)c2c1C	209P	0.008 µg/mL
CC[C@H]1OC(=O)[C@@](C)(F)C(=O)[C@H](C)[C@@H](O[C@@H]2O[C@H](C)C[C@H](N(C)C)[C@H]2O)[C@@]2(C)C[C@@H](C)C(=NC(C)=O)[C@H](C)[C@@H](OC/C(=N\OCc3ccc(C(N)=O)cc3)CO2)[C@]1(C)O	33591 (erythromycin methicillin-resistant)	>64 µg/mL
COC(=O)NC[C@H]1CN(c2ccc3c(c2)-n2cccc2COC3)C(=O)O1	ATCC 29213 (MSSA)	4 µg/mL

A second listing of 2 rows from above:

compound | strain | value
CCC(=O)N=C1[C@H](C)C[C@@]2(C)OC/C(=C/C=C/c3ccccc3)COC([C@H]1C)[C@](C)(O)[C@@H](CC)OC(=O)[C@H](C)C(=O)[C@H](C)[C@H]2O[C@@H]1O[C@H](C)C[C@H](N(C)C)[C@H]1O | 27660 (erythromycin-resistant) | 0.5 µg/mL
CC(O)CNc1cc2c(cc1F)c(=O)c(C(=O)O)cn2C1CC1 | ATCC 6538P | >100 µg/mL